Results on one molecule are retold here after patent publication US11524046B2, “Biofilm prevention, disruption and treatment with bacteriophage lysin” (priority 2012, dated 2022).

This assay relates to MRSA biofilms grown on catheters (strain ATCC BAA-42). The assay is described as follows: Catheter biofilm residual CFU, BacTiter-Glo luciferase estimate. The settings on record: 1×MIC (32 ug/mL).

B1: PlySs2: bacteriophage lysin derived from Streptococcus suis, amino acid sequence of FIG. 5 / SEQ ID NO: 1; CHAP and SH3 domains (protein, listed as Streptococcus suis)
chain: MTTVNEALNNVRAQVGSGVSVGNGECYALASWYERMISPDATVGLGAGVGWVSGAIGDTISAKNIGSSYNWQANGWTVSTSGPFKAGQIVTLGATPGNPYGHVVIVEAVDGDRLTILEQNYGGKRYPVRNYYSAASYRQQVVHYITPPGTVAQSAPNLAGSRSYRETGTMTVTVDALNVRRAPNTSGEIVAVYKRGESFDYDTVIIDVNGYVWVSYIGGSGKRNYVATGATKDGKRFGNAWGTFK
Take B1: the “time by which CFU values are at the limit of detection (100 CFU/ml)” value is not above 60 min.
